Measurements taken from PMC8187626, “Clostridioides difficile specific DNA adenine methyltransferase CamA squeezes and flips adenine out of DNA helix” (Nature Communications, 2021).

Biological target: T1, CamA (Clostridioides difficile 630) (UniProt Q183J3)
T1 sequence (looked up): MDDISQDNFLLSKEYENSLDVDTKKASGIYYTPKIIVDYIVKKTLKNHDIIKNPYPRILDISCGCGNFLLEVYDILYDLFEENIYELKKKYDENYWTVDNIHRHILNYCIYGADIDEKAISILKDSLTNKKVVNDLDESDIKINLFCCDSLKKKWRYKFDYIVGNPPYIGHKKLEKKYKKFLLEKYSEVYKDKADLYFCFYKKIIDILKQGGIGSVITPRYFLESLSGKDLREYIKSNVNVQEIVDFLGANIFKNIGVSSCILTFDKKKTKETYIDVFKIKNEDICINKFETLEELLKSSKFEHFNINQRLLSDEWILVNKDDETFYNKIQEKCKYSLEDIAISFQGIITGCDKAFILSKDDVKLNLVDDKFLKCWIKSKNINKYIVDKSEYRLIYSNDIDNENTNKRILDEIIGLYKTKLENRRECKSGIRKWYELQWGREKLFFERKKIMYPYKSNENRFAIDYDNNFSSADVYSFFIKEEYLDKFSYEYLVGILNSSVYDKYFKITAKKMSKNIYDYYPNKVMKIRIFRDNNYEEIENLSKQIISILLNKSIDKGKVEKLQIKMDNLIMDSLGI
Test: ITC
Settings: ITC at 25 C: 200 uM DNA into 18-20 uM CamA, 20 mM HEPES pH 8.0, 0.5 mM TCEP, 5% glycerol, 150 or 250 mM NaCl (cofactor comparison at 250 mM NaCl), recombinant protein, residues 1-577, protein details: His-SUMO cleaved, leaves N-terminal His-Met

CGATTCAAAAAGTCCCAAG (double strand) [substrate DNA 19 bp (CAAAAA)]
Kd (150 mM NaCl, no cofactor): 40 nM
Kd (250 mM NaCl, 100 uM SAH): 370 nM
Kd (250 mM NaCl, 100 uM sinefungin): 110 nM
Kd (250 mM NaCl, no cofactor (repeats 0.20, 0.18, 0.20)): 200 nM

For at least one entry, the source does not settle the construct or the ends of the probe. Tags and fusion partners may be left off the protein sequences shown.
